From the supplement of paper PMC9931576
Human monoclonal antibodies against the spike receptor-binding domain (heavy:light variable regions). IC50 against pseudoviruses bearing the spike of naturally observed variants; lower = stronger; >10 µg/ml means not reached at the top dose. No active / inactive call. The stated detection limit is 0.0005 µg/ml; values near or below 0.001 µg/ml lie at the floor of the assay.

B1: BD56-264 (protein)
chain 1: QVQLVQSGAEVKKPGASVKVSCKASGYTFISYYIHWVRQAPGQGLEWMGIINPTGGSTAYGRKFQGRVTMTSDTSTSTLYMELSSLKSDDTAVYYCARDEGFIPYTNSPDYWGQGTLVTVSS
chain 2: QSALTQPASVSGSPGQSITISCTGTNSDIGIYNRVSWYQQHPGKAPKLLIYEATKRPSGASNRFSGSKSGNTASLTISGLQAEDEAHYYCCSFAGRSTWVFGGGTKLTVL
B2: BD56-300 (protein)
chain 1: EVQLVESGGGLIQPGGSLRLSCAASGFTVSSNYMNWVRQAPGKGLEWVSLIYSGGTTYYADSVKGRFTISRDNSKNTLYLQMNSLRAEDTAVYYCARDQAVFGMDVWGQGTTVTVSS
chain 2: SYVLTQPPSVSVAPGKTARITCGGNNIGSNSVHWYQQKPGQAPVLVVYDDSDRPSGIPERFSGSNSGNTATLTISRVEAGDEADYYCQVWDSSSDQPVVFGGGTKLTVL
B3: DH1160 (protein)
chain 1: QVQLVQSGGEVKKPGALLRVSCKASGDTSTNHAISWVRQAPGQGLEWMAWINVYNGRTNYAPHLQGRVTLTTDTATSTAYMQLSSLRSDDTAVYYCARWIHRDFDWLPYGMFMDVWGQGTTVTVSS
chain 2: QSALTQPPSASGSPGQSVTISCTGTSIDLGVYKYVSWYQHHPGKAPKLIIYEVSKRPSGVPDRFSGSKSGNTASLTVSGLQAEDEADYYCTSYEGDNTLVFGGGTKLTVL
B4: BD56-322 (protein)
chain 1: QVQLVESGGGVVQPGRSLRLSCAASGFTFSSYAMHWVRQAPGKGLEWVAVISYDGSYKYYVDSVKGRFTISRDNSKNTLYLQMNSLRAEDTAVYYCARGGGYNSPITIVRGVIVFDGFDIWGQGTMVTVSS
chain 2: AIQLTQSPSSLSASVGDRVTITCRASQGISSALAWYQQKPGKAPKLLIYDASSLESGVPSRFSGSGSGTDFTLTISSLQPEDFATYYCQQLNNYPLTFGGGTKVEIK
B5: BD56-408 (protein)
chain 1: QVHLEQSGAEVKKPGSSVKVSCTGSGDTFNKYAVSWVRQAPGQGLEWMGGVIPVIGIPNYTQKFQDRLTISADESTSTVYMELSSLRSGDTAVYFCAGGGSVVVAADFYLEYWGRGTLVTVSS
chain 2: DIQMTQSPSTLSAYVGDRVTITCRASQSIGSWLAWYQQKPGRVPKLLINQASTLGSGVPSRFSGSGSGTEFTLTISSLQPDDFATYYCQQYKTYPTFGQGTRLDIK
B6: BD56-410 (protein)
chain 1: EVQVVESGGGLVQPGGSLRLSCAASGFSFSRFDMIWVRRAPGKGLEWVSYIGGSSSVTYYADSVKGRFTISRDNAMKSVYLQMNSLRAEDTAVYYCARDGLPGVGEMFDTWGQGTLVSVSS
chain 2: SYVLTQPPSVSVAPGQTAWITCGGNKIGSKSVQWYHQKPGQAPMLVIYYDTDRPSGIPERFSGSNSGNTATLAISRVEAGDEADYYCQVWDSDSDHVVFGGGTKLTVL

target: SARS-CoV-2 Omicron BA.1 spike pseudovirus; assay: pseudovirus neutralization IC50; higher = weaker neutralization
Description: (§1)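 Single-round VSV luciferase pseudovirus mixed with antibody dilutions for 1 h and put on Huh-7 cells for about a day; IC50 from the dose curve.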

Going from B1 to B2, the “pseudovirus neutralization IC50” value falls from over 10 µg/mL to 0.00107 µg/mL.

Compared with B3, B4 is lower in “pseudovirus neutralization IC50” value: over 10 µg/mL for the first, 0.303 µg/mL for the second.

B5 and B6 are within 1.5-fold of each other in “pseudovirus neutralization IC50” value: 0.295 µg/mL for the first, 0.2 µg/mL for the second.

target: SARS-CoV-2 Omicron BA.2 spike pseudovirus; assay: as above
Description: as §1

Going from B1 to B2, the “pseudovirus neutralization IC50” value falls from over 10 µg/mL to 0.00125 µg/mL.

Going from B3 to B4, the “pseudovirus neutralization IC50” value falls from over 10 µg/mL to 0.31 µg/mL.

B5 and B6 are within 1.5-fold of each other in “pseudovirus neutralization IC50” value: 0.254 µg/mL for the first, 0.188 µg/mL for the second.

target: SARS-CoV-2 Omicron BA.2.75 spike pseudovirus; assay: as above
Description: as §1

First: B1
Second: B2
The “pseudovirus neutralization IC50” value of the first is higher: over 10 µg/mL for the first, 7.53 µg/mL for the second.

Compared with B3, B4 is lower in “pseudovirus neutralization IC50” value: over 10 µg/mL for the first, 0.523 µg/mL for the second.

Going from B5 to B6, the “pseudovirus neutralization IC50” value falls from 1.06 µg/mL to 0.207 µg/mL (5.1-fold).

target: SARS-CoV-2 Omicron BA.5 spike pseudovirus; assay: as above
Description: as §1

Compared with B1, B2 is lower in “pseudovirus neutralization IC50” value: over 10 µg/mL for the first, 0.0282 µg/mL for the second.

B3 and B4 cannot be ordered by “pseudovirus neutralization IC50” value: over 10 µg/mL for the first, over 10 µg/mL for the second.

B5 and B6 cannot be ordered by “pseudovirus neutralization IC50” value: over 10 µg/mL for the first, over 10 µg/mL for the second.

target: SARS-CoV-2 Omicron BQ.1.1 spike pseudovirus; assay: as above
Description: as §1

B1 and B2 cannot be ordered by “pseudovirus neutralization IC50” value: over 10 µg/mL for the first, over 10 µg/mL for the second.

B3 and B4 cannot be ordered by “pseudovirus neutralization IC50” value: over 10 µg/mL for the first, over 10 µg/mL for the second.

B5 and B6 cannot be ordered by “pseudovirus neutralization IC50” value: over 10 µg/mL for the first, over 10 µg/mL for the second.

target: SARS-CoV-2 Omicron XBB spike pseudovirus; assay: as above
Description: as §1

Going from B1 to B2, the “pseudovirus neutralization IC50” value falls from over 10 µg/mL to 6.79 µg/mL.

B3 and B4 cannot be ordered by “pseudovirus neutralization IC50” value: over 10 µg/mL for the first, over 10 µg/mL for the second.

Compared with B5, B6 is lower in “pseudovirus neutralization IC50” value: over 10 µg/mL for the first, 1.9 µg/mL for the second.

target: SARS-CoV-2 early D614G spike pseudovirus; assay: as above
Description: as §1

B1 and B2 cannot be ordered by “pseudovirus neutralization IC50” value: over 10 µg/mL for the first, over 10 µg/mL for the second.

Going from B3 to B4, the “pseudovirus neutralization IC50” value rises from 0.59 µg/mL to over 10 µg/mL.

First: B5
Second: B6
The “pseudovirus neutralization IC50” value of the first is 110-fold lower: 0.00126 µg/mL for the first, 0.143 µg/mL for the second.
